Pooled drug test results. Numbers come from NIAID ChemDB, via PubChem.

Common to all: whole-cell or culture tests; agent: Candida albicans; measure: MIC

a–b is a range or a potency band.

structure | strain | read by | result
C[C@@H](n1cnnn1)[C@](O)(Cn1cncn1)c1ccc(F)cc1F | TA | - | 100 µg/mL
Cn1ccc2c3oc(-c4ccccc4)c(O)c(=O)c3ccc21 | - | - | >50 µg/mL
CCCCCCCCCCCC[N+](C)(C)COC1CCCCCC1 | ATCC 10231 | - | 26.6 µM
CCCCCOc1ccc(-c2ccc(-c3ccc(C(=O)N[C@H]4CCCNC(=O)C5C[C@H](NC6CCNCC6)CN5C(=O)C(C(C)O)NC(=O)C(CCc5ccc(O)cc5)NC(=O)C5C[C@@H](O)CN5C(=O)C(C(C)O)NC4=O)cc3)cc2)cc1 | ATCC CCH442 | - | 0.39 µg/mL
Cc1ccc(-n2ncc3c4ccccc4n(C)c3c2=O)cc1C | - | broth dilution | 250 µg/mL
CCCOc1ccccc1CON1C(N)=NC(N)=NC1(C)C | - | - | 60 µg/mL
CCCCCCCCOC[N+](C)(C)Cc1cc(N=Nc2ccc(C)cc2)ccc1O | - | - | 36 µM
CCCCC1Sc2ccc(C(Cn3ccnc3)OCc3ccc(Cl)cc3)cc2N(C)C1=O | CA6 | - | <1.8 µg/mL
CCOC(=O)c1[nH]c2ccccc2c1C#N | - | broth dilution | 125 µg/mL
CO[C@@H](n1cccn1)[C@](O)(Cn1ccnc1)c1ccc(F)cc1F | - | - | >100 µg/mL
CC1OC(O[C@@]2(C)CC(=O)[C@]3(O)C4=C(C=C[C@]3(O)C2)C(=O)c2c(ccc(C3CCC(OC5CCC(O)C(C)O5)C(C)O3)c2O)C4=O)C=CC1=O | 6 strains | - | ≥128 µg/mL
C=CCN1C[C@H](OC[C@@]23C[C@@H]4[C@H](C)CC[C@H]4[C@@]4(C=O)C[C@@H]2CC(C(C)C)[C@@]34C(=O)O)O[C@H](C)C1 | 4711E | - | 0.004 µg/mL
CCCCCOc1ccc(-c2ccc(-c3ccc(C(=O)N[C@H]4CCCNC(=O)[C@@H]5C[C@H](N)CN5C(=O)CNC(=O)C(CCc5ccc(O)cc5)NC(=O)[C@@H]5C[C@@H](O)CN5C(=O)[C@H]([C@@H](C)O)NC4=O)cc3)cc2)cc1 | ATCC 62376 | - | 0.2 µg/mL
CC(n1ncnn1)C(O)(Cn1cncn1)c1ccc(F)cc1F | TA | - | 12.5 µg/mL
C[C@H]1[C@H](O)[C@@H](C)/C=C/C=C/C=C/C=C/C=C/C=C/C=C/[C@H](O[C@@H]2O[C@H](C)[C@@H](O)[C@H](N)[C@@H]2O)C[C@@H]2O[C@](O)(C[C@@H](O)C[C@@H](O)CC[C@H](O)[C@@H](O)C[C@@H](O)CC(=O)O[C@H]1C)C[C@H](O)[C@H]2C(=O)O | Isolate 5 | - | 0.5 µg/mL
CCCCCOc1ccc(-c2ccc(-c3ccc(C(=O)N[C@H]4C[C@@H](O)[C@@H](O)NC(=O)[C@@H]5[C@@H](O)[C@@H](C)CN5C(=O)[C@H]([C@H](C)O)NC(=O)[C@H]([C@H](O)[C@@H](O)c5ccc(O)cc5)NC(=O)[C@@H]5C[C@@H](O)CN5C(=O)[C@H]([C@H](C)O)NC4=O)cc3)cc2)cc1 | Y171 | - | 0.16 µg/mL
CCCCCCCCCCCCOc1ccc(N2CCN(c3ccc(C(=O)N[C@H]4CCCNC(=O)C5C[C@H](N)CN5C(=O)C(C(C)O)NC(=O)C(CCc5ccc(O)cc5)NC(=O)C5C[C@@H](O)CN5C(=O)C(C(C)O)NC4=O)cc3)CC2)cc1 | ATCC 10231 | - | 0.78 µg/mL
CCc1ccccc1-n1ncc2c3ccccc3n(CC)c2c1=O | - | broth dilution | 250 µg/mL
CO[C@@H](n1cccn1)[C@@](O)(Cn1ccnc1)c1ccc(F)cc1 | - | - | >100 µg/mL
COc1cc(O)c2c(c1)C(=O)c1c(cc3c(c1O)-c1c(cc(C)c(C(=O)NC(C)C(=O)O)c1O)[C@H](OC1OC(C)C(N(C)C)C(OC4OCC(O)C(O)C4O)C1O)[C@H]3O)C2=O | A9540 | - | 12.5 µg/mL
C[N+](C)(COC1CCCCCCC1)Cc1cc(N=Nc2ccc(Cl)cc2)ccc1O | - | - | 268 µM
C[C@@H](N1CCN(c2ccc(OC(F)(F)C(F)F)cc2)C1=O)C(O)(Cn1cncn1)c1ccccc1F | TIMM1756 | - | <0.016 µg/mL
CC(C)CCCCCCCCCC1CC(=O)NCC(=O)N[C@@H](CCCCN)C(=O)N[C@@H](C(C)C)C(=O)N1 | IFM 40009 | - | 1.25 µg/mL
CCCCCCCCCCCC[N+](C)(C)COC(C)CCCCCC | ATCC 10231 | - | 25.5 µM
O=c1cc(-c2ccccc2)oc2c1ccc1sccc12 | - | - | >50 µg/mL
C[C@@H](N1CCN(c2ccc(-n3cnnn3)cc2)C1=O)[C@@](O)(Cn1cncn1)c1ccc(F)cc1F | CA383 | - | >16 µg/mL
CCCCCOc1ccc(-c2ccc(-c3ccc(C(=O)N[C@H]4CCCNC(=O)C5C[C@H](N)CN5C(=O)C(CCC[N+](C)(C)C)NC(=O)C(CCc5ccc(O)cc5)NC(=O)C5C[C@@H](O)CN5C(=O)C(C(C)O)NC4=O)cc3)cc2)cc1 | ATCC CCH442 | - | 0.2 µg/mL
CCCCCCCCCCCCON1C(N)=NC(N)=NC1(C)C | - | - | 15 µg/mL
CN1C(=O)COc2ccc(C(Cn3ccnc3)OCc3ccc(Cl)cc3)cc21 | CA6 | - | 7.8–15.6 µg/mL
CCCCCCCCCCCC[N+](C)(C)COCCC | ATCC 10231 | - | 155 µM
C[C@@H](n1ccn(-c2ccc(OC(F)(F)F)cc2)c1=O)C(O)(Cn1cncn1)c1ccc(F)cc1F | TIMM1756 | - | <0.016 µg/mL
CCCCON1C(N)=NC(N)=NC1(C)C | - | - | >60 µg/mL
CCCCCOc1ccc(-c2ccc(-c3ccc(C(=O)N[C@H]4CCCNC(=O)C5C[C@H](NCCN)CN5C(=O)C(C(C)O)NC(=O)C(CCc5ccc(O)cc5)NC(=O)C5C[C@@H](O)CN5C(=O)C(C(C)O)NC4=O)cc3)cc2)cc1 | ATCC 62376 | - | 0.39 µg/mL
C[N+](C)(COC1CCCCCC1)Cc1cc(N=Nc2ccc(Cl)cc2)ccc1O | - | - | 68 µM
CCCCCCCCCCCCSC[N+](C)(C)CCCCCCCCCCCC | ATCC 10231 | - | 215 µM
Cc1ccc(C(C)C)c(O)c1 | M1 | - | 0.16 µg/mL
CS[C@@H](n1cncn1)[C@@](O)(Cn1cncn1)c1ccc(F)cc1 | - | - | >100 µg/mL
C[C@@H](N1CCN(c2ccc(-n3cnnn3)cc2)C1=O)[C@](O)(Cn1cncn1)c1ccc(F)cc1F | IFO 0583 | - | 1 µg/mL
C=C(CF)CN1C[C@H](OC[C@@]23C[C@@H]4[C@H](C)CC[C@H]4[C@@]4(C=O)C[C@@H]2CC(C(C)C)[C@@]34C(=O)O)O[C@H](C)C1 | 4711E | - | ≤0.001 µg/mL
CO[C@@H](n1cccn1)[C@](O)(Cn1cncn1)c1ccc(F)cc1 | - | - | >100 µg/mL
COc1c(C(=O)/C=C(\O)c2ccccc2)ccc2sccc12 | - | - | >50 µg/mL
CCCCCOc1ccc(-c2ccc(-c3ccc(C(=O)N[C@H]4CCCNC(=O)C5C[C@H](N)CN5C(=O)C(C(C)O)NC(=O)C(Cc5ccccc5)NC(=O)C5C[C@@H](O)CN5C(=O)C(C(C)O)NC4=O)cc3)cc2)cc1 | ATCC CCH442 | - | 0.78 µg/mL
CC(CCCCCCON1C(N)=NC(N)=NC12CCCCC2)c1ccccc1 | - | - | >60 µg/mL
CC(/C=C/C=C(\C)C(O)C(C)C(=O)O[C@H]1C[C@@H](C)C=C2C=C[C@]3(C)O[C@@H](O)CC(=O)[C@]3(C)[C@H]21)=C\C=C\C(=O)O | AC3412 | - | >100 µg/mL
CC(C)C1C[C@H]2C[C@]3(C=O)[C@@H]4CC[C@@H](C)[C@H]4C[C@@]2(CO[C@H]2CN(C4CC4)C[C@@H](C)O2)[C@]13C(=O)O | CL-236 | - | 0.008 µg/mL
CO[C@@H](n1cncn1)[C@@](O)(Cn1cncn1)c1ccc(C(F)(F)F)cc1 | - | - | >100 µg/mL
CC(n1nccn1)C(O)(Cn1cncn1)c1ccc(Cl)cc1 | TA | - | 50 µg/mL
N=C(N)c1ccc2nc(-c3ccc(-c4nc5ccc(C(=N)N)cc5[nH]4)[nH]3)[nH]c2c1 | Isolate CA1247 | - | 0.78 µg/mL
COC(=O)c1ccc2c(ccn2C)c1O | - | - | >50 µg/mL
CN1C(=O)CSc2ccc(C(Cn3ccnc3)OCc3ccc(Cl)cc3)cc21 | CA6 | - | <0.18 µg/mL
C[N+](C)(COCCC1CCCCC1)Cc1cc(N=Nc2ccc(Cl)cc2)ccc1O | - | - | 34 µM
C[C@@H](n1ccnn1)[C@](O)(Cn1cncn1)c1ccc(F)cc1F | TA | - | 100 µg/mL
CCC(C)CCCCCCC1CC(=O)NCC(=O)N[C@@H](CCCN)C(=O)N[C@@H](C(C)CC)C(=O)N1 | ATCC 10231 | - | 5 µg/mL
CN[C@@H]1[C@H](O[C@@H]2OC[C@@H](O)[C@H](O)[C@H]2O)[C@@H](O)[C@H](O[C@H]2c3cc(C)c(C(=O)NCC(=O)O)c(O)c3-c3c(cc4c(c3O)C(=O)c3cc(OC)cc(O)c3C4=O)[C@@H]2O)O[C@@H]1CO | IAM4888 | - | 6.3 µg/mL
CCC/C=C/C=C/C=C/C(=O)OCC1O[C@@H](OC2C(CO)O[C@]3(OCc4cc(O)cc(O)c43)[C@H](O)[C@H]2OC(=O)/C=C/C=C/CC(O)/C=C/C=C/C=C/CCC)[C@H](O)[C@@H](O)[C@H]1O | 83-2-14 | - | 0.1 µg/mL
C[C@@H](N1CCN(c2ccc(OC(F)(F)F)cc2)C1=O)C(O)(Cn1cncn1)c1ccc(F)cc1F | TA | - | <0.016 µg/mL
O=S1c2ccccc2SN1C1CC1 | 579A | - | 25 µg/mL
CCCCCCCCCCOC[N+](C)(C)Cc1cc(N=Nc2ccc(Cl)cc2)ccc1O | - | - | 504 µM
CC1CCC2(CC1)N=C(N)N=C(N)N2OCc1cccc2ccccc12 | - | - | 125 µg/mL
CC(=O)C1CCc2sccc2C1=O | - | - | 25 µg/mL
CCn1c2ccccc2c2cnn(-c3ccc(Cl)cc3)c(=O)c21 | - | broth dilution | 250 µg/mL
CC(n1ncnn1)C(O)(Cn1cncn1)c1ccc(F)cc1 | TA | - | >100 µg/mL
C[C@@H](n1ccn(-c2ccc(OC(F)(F)C(F)F)cc2)c1=O)C(O)(Cn1cncn1)c1ccc(F)cc1F | TIMM1756 | - | <0.016 µg/mL

Again, the opening 9 rows:

| structure | strain | read by | result |
|---|---|---|---|
| C[C@@H](n1cnnn1)[C@](O)(Cn1cncn1)c1ccc(F)cc1F | TA | - | 100 µg/mL |
| Cn1ccc2c3oc(-c4ccccc4)c(O)c(=O)c3ccc21 | - | - | >50 µg/mL |
| CCCCCCCCCCCC[N+](C)(C)COC1CCCCCC1 | ATCC 10231 | - | 26.6 µM |
| CCCCCOc1ccc(-c2ccc(-c3ccc(C(=O)N[C@H]4CCCNC(=O)C5C[C@H](NC6CCNCC6)CN5C(=O)C(C(C)O)NC(=O)C(CCc5ccc(O)cc5)NC(=O)C5C[C@@H](O)CN5C(=O)C(C(C)O)NC4=O)cc3)cc2)cc1 | ATCC CCH442 | - | 0.39 µg/mL |
| Cc1ccc(-n2ncc3c4ccccc4n(C)c3c2=O)cc1C | - | broth dilution | 250 µg/mL |
| CCCOc1ccccc1CON1C(N)=NC(N)=NC1(C)C | - | - | 60 µg/mL |
| CCCCCCCCOC[N+](C)(C)Cc1cc(N=Nc2ccc(C)cc2)ccc1O | - | - | 36 µM |
| CCCCC1Sc2ccc(C(Cn3ccnc3)OCc3ccc(Cl)cc3)cc2N(C)C1=O | CA6 | - | <1.8 µg/mL |
| CCOC(=O)c1[nH]c2ccccc2c1C#N | - | broth dilution | 125 µg/mL |

An empty or dashed field is not shown. Rows are shuffled and stem from different studies.